Measured values from several laboratories, pooled; numbers as filed in NIAID ChemDB.

Shared fields: toxicity to cultured cells; cells: MDBK; measure: CC50

An empty or dashed field is not shown. Rows are shuffled and stem from different studies. CCn: concentration that lowers growth or viability of the cells by n%.

| smiles | read by | result |
|---|---|---|
| CC(=O)O[C@@H]1[C@H](OC(C)=O)[C@@H](CO)O[C@H]1n1cc(C#CI)c(=O)[nH]c1=O | neutral red | >100 µM |
| CCCCNC(=S)N=Nc1c(O)n(CN2CCOCC2)c2ccc([N+](=O)[O-])cc12 | - | 19 µg/mL |
| CCOC(=O)c1c(CSc2ccccc2)n(C)c2cc(C#N)c(O)c(CN(N3CCC(CO)CC3)N3CCC(CO)CC3)c12 | ATP | 100 µM |
| O=[N+]([O-])c1ccc2[nH]c(O)c(N=NC(=S)NC3CCCCC3)c2c1 | - | 5 µg/mL |
| COc1cc(O)c2c(=O)c3cc([N+](=O)[O-])c(Cl)cc3n(C)c2c1 | - | >33 µg/mL |
| O=c1nc(NO)ccn1[C@@H]1O[C@H](CO)[C@@H](O)[C@H]1O | - | 100 µM |
| C[C@H]1CC[C@H]2C(C)(C)[C@@H](O)CC[C@]23Oc2c(c(OCC(=O)O)cc4c2CNC4=O)C[C@]13C | - | >225 µM |
| CCOC(=O)c1c(CSc2cccs2)n(C)c2cc(Br)c3c(c12)CN(C)CO3 | ATP | 1 µM |
| N#Cc1ccc(Cn2ccc3nc(-c4ccccc4)nc-3c2)cc1 | - | 22 µg/mL |
| C[C@H]1CC[C@H]2C(C)(C)[C@@H](O)CC[C@]23Oc2c(c(OCc4ccccc4)cc4c2CNC4=O)C[C@]13C | - | 16 µM |
| NC(=O)c1nccn([C@@H]2O[C@H](CO)[C@@H](O)[C@H]2O)c1=O | - | 2000 µM |
| CCCN(CCC)CCSc1nnc2c(n1)[nH]c1ccccc12 | crystal violet | >90 µM |
| CCCCCCCCc1ccc(CONCC(=O)C(=O)[C@H]2NC(=O)[C@H]3NC(=O)[C@H](NC(=O)[C@@H]4NC(=O)[C@H](CC(N)=O)NC(=O)[C@H](NC(=O)[C@@H](CC(C)C)NC)C(O)c5ccc(c(Cl)c5)Oc5cc4cc(c5O[C@@H]4O[C@H](CO)[C@@H](O)[C@H](O)[C@H]4O[C@H]4C[C@](C)(N[NH2+][O-])[C@@H](O)[C@H](C)O4)Oc4ccc(cc4)[C@H]3O[C@H]3C[C@](C)(N)[C@@H](O)[C@H](C)O3)c3ccc(O)c(c3)-c3c(O)cc(O)cc32)cc1 | - | ≥100 µM |
| CCOC(=O)c1c(CSc2ccccc2)n(C)c2cc(Br)c(O)c(CN(C)C)c12.Cl | ATP | 16.1 µM |
| C=CCNC(=S)N=Nc1c(O)n(CN2CCCCC2)c2ccc([N+](=O)[O-])cc12 | - | 16 µg/mL |
| Brc1ccc(Cn2ccc3nc(/C=C/c4ccccc4)nc-3c2)cc1 | - | >100 µg/mL |
| CC1S/C(=N/N=C2\C(=O)Nc3ccc([N+](=O)[O-])cc32)N(c2ccc([N+](=O)[O-])cc2)C1=O | - | 18 µg/mL |
| O=c1ccn([C@@H]2O[C@H](CO)[C@@H](O)[C@H]2F)c(=O)[nH]1 | - | >100 µM |
| COc1cc2c(c3c1C[C@]1(C)[C@@H](C)CC[C@H]4C(C)(C)[C@@H](OC(C)=O)CC[C@]41O3)CNC2=O | - | 23 µM |
| Fc1ccccc1Cn1ccc2nc(-c3ccccc3)nc-2c1 | - | 29 µg/mL |
| CC(=O)O[C@H]1CC[C@@]23Oc4c(c(O)c(Br)c5c4CNC5=O)C[C@]2(C)[C@@H](C)CC[C@H]3C1(C)C | - | 19 µM |
| Fc1cccc(F)c1-c1nc2ccn(CCc3ccccc3)cc-2n1 | - | 60 µg/mL |
| Nc1ccn([C@@H]2O[C@H](CO)[C@@H](O)[C@H]2F)c(=O)n1 | - | >100 µM |
| O=C1Nc2ccc([N+](=O)[O-])cc2/C1=N/N=C1/SCC(=O)N1c1ccccc1 | - | >50 µg/mL |
| Ic1ccc(Cn2ccc3nc(-c4ccccc4)nc-3c2)cc1 | - | 9.4 µg/mL |
| COc1ccc2c(c1)[C@@H]1C[C@]1(C(=O)N1[C@@H]3CC[C@H]1CN(C)C3)Cn1c-2c(C2CCCCC2)c2ccc(C(=O)NS(=O)(=O)N(C)C)cc21 | resazurin | 30 µM |
| C=CCN1C(=O)C(C)S/C1=N/N=C1\C(=O)Nc2ccc([N+](=O)[O-])cc21 | - | >50 µg/mL |
| FC(F)(F)c1cccc(Cn2ccc3nc(-c4ccccc4)nc-3c2)c1 | - | >100 µg/mL |
| C=CCN1C(=O)CS/C1=N/N=C1\C(=O)Nc2ccc([N+](=O)[O-])cc21 | - | 4 µg/mL |
| CC(C)(C)CC(C)(C)NC(=O)[C@@H]1[C@H](O)[C@@H](O)CN1C(=O)c1ccccc1 | visual reading | >300 µM |
| O=C1Nc2ccc([N+](=O)[O-])cc2/C1=N/N=C1/SCC(=O)N1C1CCCCC1 | - | 3 µg/mL |
| CCCCCCCCCCCCCCCCCCCCCCC(=O)Nc1ccccc1C(=O)OCC | - | >100 µg/mL |
| CC1(C)[C@H]2CC[C@]1(C)C(=O)C2 | MTT | 4420 µg/mL |
| CC(=O)O[C@H]1C[C@H](n2cc(/C(I)=C\I)c(=O)[nH]c2=O)O[C@@H]1CO | neutral red | >100 µM |
| Cc1cccc(-c2nc3ccn(Cc4ccc(Br)cc4)cc-3n2)c1 | - | 35 µg/mL |
| CC(=O)O[C@@H]1[C@H](OC(C)=O)[C@@H](CO)O[C@H]1n1cc(C#CBr)c(=O)[nH]c1=O | neutral red | >100 µM |
| Cn1c2cc(Cl)c(N)cc2c(=O)c2c(O)cc(O)cc21 | - | >100 µg/mL |

A second listing of 4 rows from above:

smiles,read by,result
CCCN(CCC)CCSc1nnc2c(n1)[nH]c1ccccc12,crystal violet,>90 µM
CCCCCCCCc1ccc(CONCC(=O)C(=O)[C@H]2NC(=O)[C@H]3NC(=O)[C@H](NC(=O)[C@@H]4NC(=O)[C@H](CC(N)=O)NC(=O)[C@H](NC(=O)[C@@H](CC(C)C)NC)C(O)c5ccc(c(Cl)c5)Oc5cc4cc(c5O[C@@H]4O[C@H](CO)[C@@H](O)[C@H](O)[C@H]4O[C@H]4C[C@](C)(N[NH2+][O-])[C@@H](O)[C@H](C)O4)Oc4ccc(cc4)[C@H]3O[C@H]3C[C@](C)(N)[C@@H](O)[C@H](C)O3)c3ccc(O)c(c3)-c3c(O)cc(O)cc32)cc1,-,≥100 µM
CCCCNC(=S)N=Nc1c(O)n(CN2CCOCC2)c2ccc([N+](=O)[O-])cc12,-,19 µg/mL
NC(=O)c1nccn([C@@H]2O[C@H](CO)[C@@H](O)[C@H]2O)c1=O,-,2000 µM